In US20140315822A1:

Tests used:
[1] = target: T1, PDZ domain of the human PTPN4 protein (human) (UniProt P29074); assay: method not restated in the table; ITC per paragraph 50
T1 sequence: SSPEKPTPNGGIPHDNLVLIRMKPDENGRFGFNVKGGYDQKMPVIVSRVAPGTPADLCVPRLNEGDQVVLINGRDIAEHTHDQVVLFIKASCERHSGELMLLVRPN

[2] = target: PDZ domain of the human MAST2 protein (human) (UniProt Q6P0Q8); assay: ITC, ratio of KD against Neurovita1
[3] = target: PDZ domain of the human MAST2 protein (human) (UniProt Q6P0Q8); assay: ITC, 298 K, MAST2-PDZ titrated with peptide

For “441 (Neurovita 2) (peptide; modification not given)”, which Kd [1] is on record?
The Kd was 554 µM.

What about the gain in affinity as compared to Neurovita1 [2] of the same substance?
The gain in affinity as compared to Neurovita1 was 10 fold.

And the TΔS (entropy) [3]?
The TΔS (entropy) was -808.

What about the n (stoechiometry) [3] of the same substance?
The n (stoechiometry) was 1.07.

What about the ΔH (enthalpy) [3] of the same substance?
The ΔH (enthalpy) was -10200.
